Data from PMC9027083 (International Journal of Molecular Sciences, 2022).

Target: envelope protein domain III, dengue virus (Dengue virus 2, strain Thailand/16681/84, UniProt P29990, strain)
Test: SPR
Details: both partners purified

B1: 1A1D-2 Fab WT (Fab, V domains shown)
VH: EVQLQQSGAELVKPGASVKLSCTASGFNIKDTYMHWVKQRPEQGLEWIGRIDPANGYSKYDPKFQGKATITADTSSNAAYLQLSSLTSEDTAVYFCARDYEGFAYWGQGTLVTVSS
VL: DIVLTQSPASLAVSLGQRATISCRASESVVRYGNSFMHWYQQKPGQPPKLLIYRASSLESGIPTRFSGSGSRTDFTLTINPVEADDVATYYCQQTNVDPWAFGGGTKLEIK
notes: also called 1A1D-2 WT
Kd: 440 nM | koff: 0.0471 s⁻¹ | kon: 107000 M⁻¹ s⁻¹
